Results of unrelated studies side by side (data: NIAID ChemDB).

All rows: tests on isolated targets

Lines come from different laboratories, so protocols vary. Blank or dashed fields: not listed here. Percent inhibition refers to the dose given; in toxicity tests it is the harm to the cells. ICn is the concentration giving n% inhibition.

structure,tested at,protein,strain or isolate,agent,measure,method,result
Cc1[nH]nc2c1C(c1cc(Cl)cc(C#N)c1)(C(C)C)C(C#N)=C(N)O2,,Serine hydroxymethyltransferase,,Plasmodium falciparum,Ki,absorbance,0.518 µM
CC(=O)c1cccc(N2C(=O)C[C@@H](C3OC4OC(C)(C)OC4[C@H]3Oc3ccccc3)N(C3CC3)C2=O)c1,100 µM,Alpha-glucosidase,,Mycobacterium aurum,inhibition,,47%
Nc1nc(N)c2c(n1)CCC(Cc1cccc(OC(F)(F)F)c1)C2,,Dihydrofolate reductase,TYPE 1,Cryptosporidium parvum,IC50,,0.4 µM
O=C(O)c1cc2nc(-c3ccc(OCc4ccccc4)cc3)c(CC3CCCCC3)c(=O)n2[nH]1,,RNA-dependent RNA polymerase,,Hepatitis C virus,IC50,,<1 µM
CCOC(=O)CC[C@H](NC(=O)c1ccc(C2COc3nc(N)[nH]c(=O)c32)cc1)C(=O)OCC,,DHFR,,Pneumocystis carinii,IC50,,>300 µM
CC(=O)Nc1ccc(C(=O)O)cc1,10 µM,DHPS,,Pneumocystis carinii,inhibition,,12.5%
CCc1sc2nc(N)nc(N)c2c1-c1ccc(Cl)cc1,,Dihydrofolate reductase,TYPE 1,Cryptosporidium parvum,IC50,,>10 µM
O=C(Nc1ccsc1-c1nc(C(=O)O)c(O)c(=O)[nH]1)c1cccc(F)c1F,,HCV polymerase,,Hepatitis C virus,IC50,,<25 µM
O=C([O-])c1c(F)c(F)cc(F)c1F,,Beta-carbonic anhydrase,Can2,Cryptococcus neoformans,Ki,,49.1 µM
Cc1[nH]nc2c1C(c1cc(Cl)cc(C#N)c1)(C1CCC1)C(C#N)=C(N)O2,,Serine hydroxymethyltransferase,,Plasmodium falciparum,Ki,absorbance,0.349 µM
O=C(O)c1cc2nc(-c3ccccc3)c(-c3ccc(Oc4ccccc4)cc3)c(=O)n2[nH]1,,RNA-dependent RNA polymerase,,Hepatitis C virus,IC50,,>10 µM
Nc1nc(-c2ccccc2)c(CCCNc2ccc(C(=O)NC(CCC(=O)O)C(=O)O)cc2)c(=O)[nH]1,,Dihydrofolate reductase,TYPE I,Cryptosporidium parvum,IC50,,>100 µM
CO[C@@H]1C2OC(C)(C)OC2OC1[C@@H]1CC(=O)N(c2ccc(Cl)cc2)C(=O)N1C1CC1,100 µM,Alpha-glucosidase,,Mycobacterium aurum,inhibition,,11.7%
O=C(Cn1ncc2c(=O)oc3ccccc3c21)Nc1cccc(Oc2ccc(Cl)cc2)c1,,Inosine monophosphate dehydrogenase,,Cryptosporidium parvum,IC50,absorbance,0.02 µM
Nc1nc2occ(-c3ccc(O)cc3)c2c(=O)[nH]1,,DHFR,,Pneumocystis carinii,IC50,,140 µM
O=C(CCn1ncc2c(=O)oc3ccccc3c21)Nc1cccc(Cl)c1,,Inosine monophosphate dehydrogenase,,Cryptosporidium parvum,IC50,absorbance,>5 µM
Cc1[nH+]c2ccccc2c(=O)n1NC(=O)C(=O)N/N=C/c1ccc(O)c(O)c1O,10 µM,Protein kinase B,,Mycobacterium tuberculosis,inhibition,kinase activity / radiometric,91.5%
Nc1nc(N)c2c(Cl)cccc2n1,,DHFR,,Pneumocystis carinii,IC50,,0.42 µM
O=C(N[C@H](C(=O)O)c1ccc(O)cc1)c1cnn2c(C3CCCCC3)c(-c3ccc(Cl)cc3)cnc12,,RNA-dependent RNA polymerase,,Hepatitis C virus,IC50,,<1 µM
O=c1[nH][nH]c(=O)c2c1ncn2[C@@H]1C[C@H](O)[C@@H](CO)O1,,NTPase/helicase,,West Nile virus,IC50,,0.185 µM
NC(=O)c1c(NC(=O)Nc2ccc3c(c2)OCO3)sc2c(Cl)c(O)ccc12,100 µM,Glucose-6-phosphate dehydrogenase (GPDH),,Mycobacterium tuberculosis,inhibition,absorbance,<1%
Nc1nc(N)c2nc(Cc3ccc4ccccc4c3)c(Cc3ccc4ccccc4c3)nc2n1,,DHFR,,Pneumocystis carinii,IC50,,4 µM
COc1cc(N(C)Cc2c(Br)sc3nc(N)nc(N)c23)cc(OC)c1OC,,Dihydrofolate reductase,TYPE 2,Cryptosporidium parvum,IC50,,>10 µM
Cc1ccc2c(N)nc(N)nc2c1,,DHFR,,Pneumocystis carinii,IC50,,65 µM
CCCCCCCC/C=C\CCCCCCCCN(C(=O)NCc1ccccc1)[C@@H](CC(=O)OCC)C1O[C@@H]2OC(C)(C)O[C@@H]2[C@H]1OC,100 µM,Alpha-glucosidase,,Mycobacterium aurum,inhibition,,1.4%
O=C(NCc1cccs1)Nc1cccc(-c2nc(C(=O)O)c(O)c(=O)[nH]2)c1,,HCV polymerase,,Hepatitis C virus,IC50,,<100 µM
CCCCN1C(=O)N(c2ccc(F)cc2)C(=O)C[C@H]1C1OC2OC(C)(C)OC2[C@H]1Oc1ccccc1,100 µM,Alpha-glucosidase,,Mycobacterium aurum,inhibition,,17.3%
CC(=O)c1ccc(N2CCN(c3cncc(-c4ccccc4Oc4ccccc4)n3)CC2)cc1,,UL97 kinase,,Cytomegalovirus,IC50,,<100 µM
CC(C)C(=O)N[C@H]1C([C@H](C)[C@@H](O)CO)OC(C(=O)O)=C[C@@H]1N=[N+]=[N-],,Neuraminidase,TYPE 2,Parainfluenza virus,IC50,,1.6 µM
Nc1nc2occ(-c3ccc(F)cc3)c2c(=O)[nH]1,,DHFR,,Pneumocystis carinii,IC50,,100 µM
O=C(Nc1cscc1-c1nc(C(=O)O)c(O)c(=O)[nH]1)OCCc1ccccc1,,HCV polymerase,,Hepatitis C virus,IC50,,<25 µM
CC(=O)c1c(C)c2cnc(Nc3ccc(N4CCN(C)CC4)cc3)nc2n(C2CCCC2)c1=O,10 µM,Protein kinase B,,Mycobacterium tuberculosis,inhibition,kinase activity / radiometric,92.4%
Cc1[nH]nc2c1C(c1cc(C#N)cc(-c3ccc(C(=O)N(C)C)s3)c1)(C(C)C)C(C#N)=C(N)O2,,Serine hydroxymethyltransferase,,Plasmodium falciparum,Ki,absorbance,0.272 µM
CCCCCCCCCCCCCCCCN(C(=O)Nc1ccccc1)[C@@H](CC(=O)OCC)C1O[C@@H]2OC(C)(C)O[C@@H]2[C@H]1OC,100 µM,Alpha-glucosidase,,Mycobacterium aurum,inhibition,,34.8%
c1cc(-c2cnc3c(-c4nn[nH]n4)cnn3c2C2CCCCC2)ccc1OC1CCCCC1,,RNA-dependent RNA polymerase,,Hepatitis C virus,IC50,,<1 µM
CCCCCCCCCCCCCCCCN(C(=O)Nc1ccc(Cl)cc1)[C@@H](CC(=O)OCC)C1O[C@@H]2OC(C)(C)O[C@@H]2[C@H]1OC,100 µM,Alpha-glucosidase,,Mycobacterium aurum,inhibition,,31.5%
Nc1nc(N)c2ccc(F)cc2n1,,DHFR,,Pneumocystis carinii,IC50,,41 µM
C[C@H](CO)[C@@H](OC(=O)N1CCNCC1)[C@@H]1OC(C(=O)O)=C[C@H](N=C(N)N)[C@H]1NC(=O)O,,Sialidase,H3N2 AICHI,Influenza A virus,IC50,,0.038 µM
COc1ccc(N2CCN(c3cnccn3)C(c3cc4ccccc4o3)C2)cc1,1 µM,UL97 kinase,,Cytomegalovirus,inhibition,,<50%
Nc1nc(N)c2c(Cl)c(Br)ccc2n1,,DHFR,,Pneumocystis carinii,IC50,,0.14 µM
COc1ccccc1-c1coc2nc(N)[nH]c(=O)c12,,DHFR,,Pneumocystis carinii,IC50,,>300 µM
CCCCCCCCCCCCN(C(=O)NCc1ccccc1)[C@@H](CC(=O)OCC)C1O[C@@H]2OC(C)(C)O[C@@H]2[C@H]1Oc1ccccc1,100 µM,Alpha-glucosidase,,Mycobacterium aurum,inhibition,,10.8%
Nc1nc2occ(-c3ccc(C(=O)N[C@@H](CCC(=O)O)C(=O)O)cc3)c2c(=O)[nH]1,,DHFR,,Pneumocystis carinii,IC50,,110 µM
CN(C)c1cccc2c(S(=O)(=O)Nc3ccc(NC(=O)C(C)(C)CO)cc3)cccc12,,Terminase,BAY-38-4766-resistant isolate,Mouse cytomegalovirus,IC50,,28.3 µM
CSc1ccc(-c2cncc(N3CCN(c4ccc(C)c(C)c4)CC3)n2)cc1,1 µM,UL97 kinase,,Cytomegalovirus,inhibition,,<50%
CC(C)(C)NC(=O)[C@H]1Cc2ccccc2CN1C(=O)[C@@H](O)[C@H](Cc1ccccc1)NC(=O)[C@H](CC(N)=O)NC(=O)OCc1ccccc1,0.05 µM,Protease,,HIV-1,inhibition,,8.6%
Cc1ccc(C(=O)Nc2cscc2-c2nc(C(=O)O)c(O)c(=O)[nH]2)s1,,HCV polymerase,,Hepatitis C virus,IC50,,<25 µM
Cc1cc(F)ccc1-c1cnc2c(C(=O)O)cnn2c1C1CCCCC1,,RNA-dependent RNA polymerase,,Hepatitis C virus,IC50,,>10 µM
NCCCOc1ccc(Nc2ncc3ccc(=O)n(C4CCCC4)c3n2)cc1,,Protein kinase B,,Mycobacterium tuberculosis,IC50,kinase activity / radiometric,0.445 µM
FC(F)(F)c1cccc(N2CCN(c3cncc(-c4ccccc4Oc4ccccc4)n3)CC2)c1,,UL97 kinase,,Cytomegalovirus,IC50,,<100 µM
CN(C)CCCOc1ccc(C(=O)c2ccc(Cl)cc2)cc1,10 µM,Oxidosqualene cyclase,,Pneumocystis carinii,inhibition,,4%
COc1cc(C2COc3nc(N)nc(N)c32)cc(OC)c1OC,,DHFR,,Pneumocystis carinii,IC50,,>300 µM
COc1cc(NCc2cccc3nc(N)nc(N)c23)c(Br)c(OC)c1OC,,Dihydrofolate reductase,TYPE 2,Cryptosporidium parvum,IC50,,>10 µM
Nc1nc2c(c(=O)[nH]1)C(c1ccccc1)C([N+](=O)[O-])O2,,DHFR,,Pneumocystis carinii,IC50,,34 µM
O=C(Nc1ccsc1-c1nc(C(=O)O)c(O)c(=O)[nH]1)OCCc1ccccc1C(F)(F)F,,HCV polymerase,,Hepatitis C virus,IC50,,<25 µM
Nc1nc2occ(-c3ccc([N+](=O)[O-])cc3)c2c(=O)[nH]1,,DHFR,,Pneumocystis carinii,IC50,,75 µM
COC(=O)c1cnn2c(C(F)(F)F)cc(-c3ccccc3)nc12,,RNA-dependent RNA polymerase,,Hepatitis C virus,IC50,,>10 µM
Clc1cccc(N2CCN(c3cncc(-c4ccccc4)n3)CC2)c1,,UL97 kinase,,Cytomegalovirus,IC50,,<10 µM
O=C(Nc1cscc1-c1nc(C(=O)O)c(O)c(=O)[nH]1)NS(=O)(=O)c1ccccc1C(F)(F)F,,HCV polymerase,,Hepatitis C virus,IC50,,<25 µM
CCCCCCCCCCCCC/C=C/[C@@H](O)[C@H](CO[C@@H]1O[C@H](CO)[C@H](O)[C@H](OS(=O)(=O)O)[C@H]1O)NC(=O)CCCCCCCCCCCCCCCCCCCCCCC,200 µM,Sialidase,Influenza A/Victoria/2/82 (H3N2),Influenza A virus,inhibition,,98.1%
CCCCCCCNC(=O)O[C@@H]([C@@H]1OC(C(=O)O)=C[C@H](N=C(N)N)[C@H]1NC(=O)O)[C@H](C)CO,,Sialidase,H3N2 AICHI,Influenza A virus,IC50,,0.0037 µM
OCc1ccc(-c2cncc(N3CCN(c4ccccc4F)CC3)n2)cc1,,UL97 kinase,,Cytomegalovirus,IC50,,<10 µM
C[C@H](CO)[C@@H](OC(=O)N1CCN(C(=O)OCc2ccccc2)CC1)[C@@H]1OC(C(=O)O)=C[C@H](N=C(N)N)[C@H]1NC(=O)O,,Sialidase,H3N2 AICHI,Influenza A virus,IC50,,0.014 µM
Cc1[nH]nc2c1C(c1cc(Cl)cc(N3CCOCC3)c1)(C1CCC1)C(C#N)=C(N)O2,,Serine hydroxymethyltransferase,,Plasmodium falciparum,IC50,absorbance,0.48 µM
Nc1nc(N)c2cc(C(F)(F)F)ccc2n1,,DHFR,,Pneumocystis carinii,IC50,,2.7 µM
CC1(C)S[C@@H]2[C@H](NC(=O)Cc3ccccc3)C(=O)N2[C@H]1C(=O)O,,Topoisomerase IV,J24 (quinolone- penicillin-sensitive),Streptococcus pneumoniae,IC50,,>200 µg/mL
Cc1ccc(-c2cncc(N3CCN(c4cnccn4)CC3)n2)cc1,1 µM,UL97 kinase,,Cytomegalovirus,inhibition,,<50%
c1csc(COc2ccc(-c3cnc4c(-c5nn[nH]n5)cnn4c3C3CCCCC3)cc2)c1,,RNA-dependent RNA polymerase,,Hepatitis C virus,IC50,,<1 µM
COc1ccc(Cl)cc1-c1cncc(N2CCN(c3ccncc3)CC2)n1,10 µM,UL97 kinase,,Cytomegalovirus,inhibition,,>15%
C[C@H](CO)[C@@H](OC(=O)N(C1CCCCC1)C1CCCCC1)[C@@H]1OC(C(=O)O)=C[C@H](N)[C@H]1NC(=O)O,,Sialidase,Victoria,Influenza B virus,IC50,,40 µM